The assay concerns the target FMDV 3D^pol (Foot-and-mouth disease virus serotype O, UniProt P03305). Description: cell-based. The settings on record: IC50 of FMDV 3Dpol activity (GFP expression).

By UniProt entry, the sequences of proteins in these tests, tags left out. Residues count along the entry.
UniProt P03305, 1863-2332 limits assumed: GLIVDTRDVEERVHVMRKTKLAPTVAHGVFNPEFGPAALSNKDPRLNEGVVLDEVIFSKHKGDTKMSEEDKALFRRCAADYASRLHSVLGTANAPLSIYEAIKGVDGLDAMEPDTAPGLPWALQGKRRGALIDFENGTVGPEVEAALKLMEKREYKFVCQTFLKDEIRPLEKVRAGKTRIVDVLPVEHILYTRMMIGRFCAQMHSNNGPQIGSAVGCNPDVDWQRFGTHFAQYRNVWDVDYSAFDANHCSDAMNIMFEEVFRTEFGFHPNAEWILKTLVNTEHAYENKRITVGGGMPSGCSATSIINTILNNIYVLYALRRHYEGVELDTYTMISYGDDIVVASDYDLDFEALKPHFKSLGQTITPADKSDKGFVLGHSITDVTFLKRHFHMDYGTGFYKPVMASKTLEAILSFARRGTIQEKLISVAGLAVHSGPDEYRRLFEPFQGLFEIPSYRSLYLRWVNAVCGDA

As to `CC1=CC(=O)[C@@H](O)[C@]2(C)[C@H]3[C@@H](O)[C@H](O)[C@@]4(C)OC[C@@]35[C@@H](C[C@@H]12)OC(=O)[C@H](O)[C@]54O` [Bruceine D], the IC50 lay in the range of 370 to 390 nM.
